# From patent US11224646B2, “Intranasal delivery of a cyclic-di-nucleotide adjuvanted vaccine for tuberculosis” (priority 2018, dated 2022)
# Tested on: M. tuberculosis strain Erdman
# Conditions: mouse, in vivo
smiles,measurement,value
"Nc1nc2c(ncn2[C@@H]2O[C@@H]3CO[P@@](=O)(S)O[C@H]4[C@@H](O)[C@H](n5cnc6c(=O)[nH]c(N)nc65)O[C@@H]4CO[P@@](=O)(S)O[C@H]3[C@H]2O)c(=O)[nH]1 [RR-CDG, dithio-[RP, RP]-cyclic-[G(3′,5′)pG(3′,5′)p]]",protection against aerosol challenge with virulent M. tuberculosis,1.5 logs
